This assay deals with Pyricularia oryzae. Kind of assay: Antifungal activity against Magnaporthe oryzae assessed as concentration required to cause morphological changes after 16 hr by inverted microscopic analysis relative to control.

In ChEMBL document CHEMBL3045818, “Two novel trichothecenes from Myrothecium roridum” (2007) one finds Activity data, which are given here for 2 compounds.

On to `CC1=C[C@H]2O[C@@H]3C[C@H]4OC(=O)/C=C\C=C\[C@@H](O)[C@@H](C)OCC/C(C)=C/C(=O)OCC2(CC1)[C@]4(C)[C@]31CO1` (some centres not stated), for which the Activity was determined as 6.2 µM/L.
Consider `CC1=C[C@H]2O[C@@H]3C[C@H]4OC(=O)/C=C\C=C\[C@@H](O)[C@H](C)OCC/C(C)=C/C(=O)OCC2(CC1)[C@]4(C)[C@]31CO1` (some centres not stated), for which the Activity turned out to be 7.9 µM/L.
